Anti-infective test results gathered from many reports (values: NIAID ChemDB through PubChem).

Shared fields: growth or infection tests; agent: HIV-1; method: MTT; measure: EC50

Lines come from different laboratories, so protocols vary.

compound	strain	cell line	mutations	result
C#CCOCn1c(Cc2cc(F)ccc2F)c(CC)c(=O)[nH]c1=O	N119 (Y181C)	MT-4	-	17 µM
CCN(CC)c1c(N=Nc2ccc(Cl)cc2)c(N)nc(=O)n1C	IIIB	MT-4	-	>100 µM
O=c1c2ccccc2sn1/N=C/c1cccc(F)c1	-	MT-4	-	>15 µM
O=C1CC2CCC1C1C(=O)N(CCCCN3CCN(Cc4ccccc4)CC3)C(=O)C21	-	MT-4	-	>100 µM
C=C1C[C@@]23CC[C@@H]4C(C)(C)[C@H](O)C(=O)C[C@@]4(C)[C@@H]2C[C@@H]1CC3=O	-	MT-4	-	>25 µg/mL
Cn1c(Cl)c(N=Nc2ccc(Cl)cc2)c(N)nc1=O	IIIB	MT-4	-	>2.15 µM
Nc1ccn([C@H]2CC[C@@H](CO)O2)c(=O)n1	Clinical isolate	MT-4	-	3.07 µg/mL
C=Cn1cc(C(=O)O)c(=O)c2ccc(N3CCN(c4nccs4)CC3)nc21	IIIB	MT-4	-	1.46 µM
COc1cc([C@@H]2Oc3cc([C@H]4Oc5cc(O)cc(O)c5C(=O)[C@@H]4O)ccc3O[C@H]2COP(=O)(O)OC[C@H]2O[C@H](O[C@H]3O[C@H](CO)[C@@H](O)[C@H](O)[C@H]3O)[C@H](O)[C@@H](O)[C@@H]2O)ccc1O	IIIB	MT-4	-	>140 µM
CCCCCCNc1c(N=Nc2ccc(-c3ccc(F)cc3)cc2)c(N)nc(=O)n1C	IIIB	MT-4	-	>11.66 µM
Cc1cn([C@H]2C[C@H](N=[N+]=[N-])[C@@H](CO)O2)c(=O)[nH]c1=O	-	MT-4	A17 (K103N Y181C)	0.01 µM
Cc1cc(C)cc(S(=O)(=O)c2c(C(=O)NS(=O)(=O)c3ccc(F)cc3)[nH]c3ccc(Cl)cc23)c1	-	MT-4	Y181C	>121 µM
COc1nc(N(C)C)nc(C(=O)c2c(F)cccc2F)c1C	IIIB	MT-4	K103N + Y181C	>20 µM
Cc1cc(/C=C/C#N)cc(C)c1Oc1nc(NC2CCN(Cc3ccc(Br)cc3)CC2)nc2ccsc12	IIIB	MT-4	NNRTI-resistant (RT E138K)	0.154 µM
COc1ccc(S(=O)(=O)NC(c2nnc(Nc3ccc(Br)cc3)s2)C(C)C)cc1	IIIB	MT-4	-	>9.39 µM
COc1c(O)cc2ccc(=O)oc2c1-c1c(O)ccc2ccc(=O)oc12	-	MT-4	N119 (Y1811C)	6.7 µM
COc1cccc(F)c1C(=O)c1nc(N(C)C)nc(OC)c1C	IIIB	MT-4	Y181C	>7.8 µM
CCCS(=O)(=O)NC(=O)c1[nH]c2ccc(Cl)cc2c1S(=O)(=O)c1cc(C)cc(C)c1	IIIB	MT-4	-	0.36 µM
O=C1CC2CCC1C1C(=O)N(CCCCN3CCN(c4ccc(F)cc4)CC3)C(=O)C21	-	MT-4	-	>100 µM
Cn1c(N2CCCCC2)c(N=Nc2ccc(Cl)cc2)c(N)nc1=O	IIIB	MT-4	-	>20.11 µM
COc1ccc(CCNc2nc(NC(=O)Nc3ccccc3C)nc(Oc3cc(=O)oc4ccccc34)n2)cc1OC	IIIB	MT-4	-	>16.9 µg/mL
Cc1ccc2sn(/N=C/c3ccccc3)c(=O)c2c1	-	MT-4	Y181C	>33 µM
O=C1CC2CCC1C1C(=O)NC(=O)C21	-	MT-4	-	>100 µM
Cc1cc(/C=C/C#N)cc(C)c1Oc1nc(NC2CCN(Cc3ccc([N+](=O)[O-])cc3)CC2)nc2ccsc12	IIIB	MT-4	NNRTI-resistant (RT F227L V106A)	0.106 µM
COc1cc([C@@H]2Oc3cc([C@H]4Oc5cc(O)cc(O)c5C(=O)[C@@H]4O)ccc3O[C@H]2CO)ccc1O	IIIB	MT-4	-	>110 µM
Cc1cn([C@H]2C[C@H](N=[N+]=[N-])[C@@H](CO)O2)c(=O)[nH]c1=O	IIIB	MT-4	-	0.0022 µM
C#CCOCn1c(Cc2cc(C(F)(F)F)cc(C(F)(F)F)c2)c(CC)c(=O)[nH]c1=O	N119 (Y181C)	MT-4	-	100 µM
Cn1cc(C(=O)O)c(=O)c2ncc(N3CCN(c4nc5ccccc5s4)CC3)cc21	IIIB	MT-4	-	>119 µM
Cc1cc(C)cc(S(=O)(=O)c2c(C(=O)NS(=O)(=O)C(F)(F)F)[nH]c3ccc(Cl)cc23)c1	-	MT-4	F227L + V106A	38.65 µM
C/C(=N\Nc1nc(-c2ccc([N+](=O)[O-])cc2)cs1)c1ccc(-n2ccnc2)cc1	IIIB	MT-4	-	>38.9 µM
COc1ccc(CCNc2nc(NC(=O)Nc3ccc(Br)cc3)nc(Oc3cc(=O)oc4ccccc34)n2)cc1OC	IIIB	MT-4	-	>47.63 µg/mL
C=CCOCn1c(Cc2cccc(F)c2)c(CC)c(=O)[nH]c1=O	A17	MT-4	K103N + Y181C	42 µM
Cc1ccc(CN2CCC(Nc3nc(Oc4c(C)cc(/C=C/C#N)cc4C)c4sccc4n3)CC2)cc1	IIIB	MT-4	NNRTI-resistant (RT L100I)	0.0319 µM
CCOCn1c(C(=O)c2cccc(C#N)c2)c(CC)c(=O)[nH]c1=O	IIIB	MT-4	Y181C	8 µM
Cc1ccnc2c1NC(=O)c1cccnc1N2C1CC1	IIIB	MT-4	-	0.05 µM
O=c1c2ccccc2sn1/N=C/c1ccc(O)cc1O	-	MT-4	K103N + Y181C	>21 µM
COc1cc([C@@H]2Oc3cc([C@H]4Oc5cc(O)cc(O)c5C(=O)[C@@H]4O)ccc3O[C@H]2COC[C@H]2O[C@H](OC)[C@@H](O)[C@@H](O)[C@@H]2O)ccc1O	IIIB	MT-4	-	>160 µM
COc1ccc(S(=O)(=O)NC(Cc2ccccc2)c2nnc(Nc3ccc(Br)cc3)s2)cc1	IIIB	MT-4	-	>1.98 µM
C/C(=N\Nc1nc(-c2ccc(Br)cc2)cs1)c1ccc(Cl)c(Cl)c1	IIIB	MT-4	-	>13.05 µM
O=C1CC2CCC1C1C(=O)N(CCCN3CCN(c4ccc(F)cc4)CC3)C(=O)C21	-	MT-4	-	>100 µM
CCOCn1c(Cc2ccccc2)c(C(C)C)c(=O)[nH]c1=O	IIIB	MT-4	EFV	100 µM
Cc1c(C(O)c2c(F)cccc2F)nc(N(C)C)[nH]c1=O	IIIB	C8166	EFV-resistant (K103R V179D P225H)	>50 µM
Cc1ccc2sn(/N=C/c3ccc(O)c(O)c3)c(=O)c2c1	-	MT-4	Y181C	>49 µM
COc1ccc(/C=N/Nc2nc(-c3ccc(Cl)cc3)cs2)cc1	IIIB	MT-4	-	>125 µM
COc1ccc(Nc2nnc(C(Cc3ccccc3)NS(=O)(=O)c3ccc(OC)cc3)s2)cc1	IIIB	MT-4	-	>93.25 µM
CCOCn1c(Cc2ccccc2)c(C(C)C)c(=O)[nH]c1=O	-	MT-4	-	0.03 µM
COc1ccc(CCNc2nc(NC(=S)Nc3ccccc3)nc(Oc3cc(=O)oc4ccccc34)n2)cc1OC	IIIB	MT-4	-	>15.45 µg/mL
Cc1cc(C)cc(S(=O)(=O)c2c(C(=O)NS(=O)(=O)c3ccc(F)cc3F)[nH]c3ccc(Cl)cc23)c1	-	MT-4	F227L + V106A	7.4 µM
Cn1c(-c2ccccc2F)cc(N)nc1=O	IIIB	MT-4	-	>13.27 µM
O=C1CC2CCC1C1C(=O)N(CC(O)CN3CCN(c4ccccc4)CC3)C(=O)C21	-	MT-4	-	>100 µM
O=c1oc2cc(O)cc(O)c2c(O)c1-c1coc2c1c(=O)oc1cc(O)cc(O)c12	IIIB	MT-4	-	0.01 µM
COc1ccc(Nc2nnc(C(NS(=O)(=O)c3ccc(Br)cc3)C(C)C)s2)cc1	IIIB	MT-4	-	>9.57 µM
COc1ccc(CCNc2nc(NC(=O)Nc3ccc(F)cc3)nc(Oc3cc(=O)oc4ccccc34)n2)cc1OC	IIIB	MT-4	-	>19.75 µg/mL
Cc1ccc2sn(/N=C/c3ccc(O)cc3)c(=O)c2c1	-	MT-4	Y181C	>23 µM
CCCNc1c(N=Nc2ccc(Cl)cc2)c(N)nc(=O)n1C	IIIB	MT-4	-	>100 µM
C=CCOCn1c(C(F)c2cccc(C#N)c2)c(CC)c(=O)[nH]c1=O	IIIB	MT-4	EFV	>100 µM
Cc1c(C(=O)c2c(F)cccc2F)nc(N(C)C)[nH]c1=O	IIIB	C8166	EFV-resistant (K103R V179D P225H)	>100 µM
Cc1ccc2sn(/N=C/c3ccc4c(c3)OCO4)c(=O)c2c1	-	MT-4	Y181C	33 µM
Cc1ccccc1CN1CCC(Nc2nc(Oc3c(C)cc(/C=C/C#N)cc3C)c3sccc3n2)CC1	IIIB	MT-4	NNRTI-resistant (RT F227L V106A)	0.0614 µM
O=c1c2ccccc2sn1/N=C/c1ccc([N+](=O)[O-])cc1[N+](=O)[O-]	-	MT-4	EFV-resistant (K103 V179D P225H)	>100 µM
O=C1Nc2ccc(Cl)cc2[C@@](C#CC2CC2)(C(F)(F)F)O1	-	MT-4	K103N	0.119 µM
CCOCn1c(Cc2ccccc2)c(C(C)C)c(=O)[nH]c1=O	EFV-resistant (K103R V179D P225H)	MT-4	-	>100 µM
Cc1cc(/C=C/C#N)cc(C)c1Oc1nc(NC2CCN(Cc3cccc(C(N)=O)c3)CC2)nc2ccsc12	IIIB	MT-4	NNRTI-resistant (RT F227L V106A)	0.00789 µM
COc1ccc(NC(=O)Nc2nc(NCCc3ccc(OC)c(OC)c3)nc(Oc3cc(=O)oc4ccccc34)n2)cc1	IIIB	MT-4	-	>61.6 µg/mL
C=C1C[C@@]23CC[C@@H]4C(C)(C)[C@@H](O)CC[C@@]4(C)[C@@H]2C[C@@H]1[C@@H](O)C3=O	-	MT-4	-	>25 µg/mL
COc1ccc(S(=O)(=O)NC(Cc2ccccc2)c2nnc(Nc3ccc(F)cc3)s2)cc1	IIIB	MT-4	-	>2.04 µM
C(=N\Nc1nc(-c2ccccc2)cs1)/c1cccnc1	IIIB	MT-4	-	>11.6 µM
O=C1CC2CCC1C1C(=O)N(CCCCN3CCN(c4ncccn4)CC3)C(=O)C21	-	MT-4	-	>100 µM
C=Cn1cc(C(=O)O)c(=O)c2ccc(N3CCN(c4nc5ccccc5o4)CC3)nc21	IIIB	MT-4	-	0.86 µM
O=c1c2ccccc2sn1/N=C/c1cccc(O)c1	-	MT-4	-	>15 µM
C=CC1C[C@@]23CCC4=C(C)C(=O)CC[C@@]4(C)[C@@H]2C[C@@H]1[C@@H](O)C3=O	-	MT-4	-	>25 µg/mL
Cc1cc(C#N)cc(C)c1Oc1nc(NC2CCN(Cc3ccc(S(C)(=O)=O)cc3)CC2)nc2sccc12	IIIB	MT-4	NNRTI-resistant (RT L100I)	0.00785 µM
Cc1cc(C)cc(S(=O)(=O)c2c(C(=O)NS(=O)(=O)c3ccccc3)[nH]c3ccc(Cl)cc23)c1	IIIB	MT-4	-	1.31 µM
Oc1ccccc1/C=N/Nc1nc(-c2ccc(Br)cc2)cs1	IIIB	MT-4	-	>48.7 µM
C/C=C(\C)C(=O)OC[C@]1(C)C(=O)CC[C@@]2(C)[C@@H]3CC[C@H]4C[C@@]3(CC[C@@H]21)C[C@@]4(O)CO	-	MT-4	-	>25 µg/mL
C/C(=N\Nc1nc(-c2ccc(Cl)cc2)cs1)c1ccc2c(c1)OCO2	IIIB	MT-4	-	>21.83 µM
O=C1CC2CCC1C1C(=O)N(CC(O)CN3CCN(c4ccc(F)cc4)CC3)C(=O)C21	-	MT-4	-	>100 µM
CCOCn1c(Cc2cccc(C(F)(F)F)c2)c(CC)c(=O)[nH]c1=O	A17	-	K103N + Y181C	45 µM
O=[N+]([O-])c1ccc(-c2csc(N/N=C/c3cccnc3)n2)cc1	IIIB	MT-4	-	>62.4 µM
C#CCOCn1c(Cc2cccc(F)c2)c(CC)c(=O)[nH]c1=O	A17	MT-4	K103N + Y181C	56 µM
Nn1cc(C(=O)O)c(=O)c2ccc(N3CCN(c4ccccn4)CC3)nc21	IIIB	MT-4	-	12.01 µM

A second listing of 10 rows from above:

{"compound": "Cc1ccc(CN2CCC(Nc3nc(Oc4c(C)cc(/C=C/C#N)cc4C)c4sccc4n3)CC2)cc1", "strain": "IIIB", "cell line": "MT-4", "mutations": "NNRTI-resistant (RT L100I)", "result": "0.0319 µM"}
{"compound": "Cc1ccc2sn(/N=C/c3ccc4c(c3)OCO4)c(=O)c2c1", "cell line": "MT-4", "mutations": "Y181C", "result": "33 µM"}
{"compound": "Cc1c(C(O)c2c(F)cccc2F)nc(N(C)C)[nH]c1=O", "strain": "IIIB", "cell line": "C8166", "mutations": "EFV-resistant (K103R V179D P225H)", "result": ">50 µM"}
{"compound": "Cc1ccc2sn(/N=C/c3ccccc3)c(=O)c2c1", "cell line": "MT-4", "mutations": "Y181C", "result": ">33 µM"}
{"compound": "Nn1cc(C(=O)O)c(=O)c2ccc(N3CCN(c4ccccn4)CC3)nc21", "strain": "IIIB", "cell line": "MT-4", "result": "12.01 µM"}
{"compound": "Cc1cc(/C=C/C#N)cc(C)c1Oc1nc(NC2CCN(Cc3ccc(Br)cc3)CC2)nc2ccsc12", "strain": "IIIB", "cell line": "MT-4", "mutations": "NNRTI-resistant (RT E138K)", "result": "0.154 µM"}
{"compound": "COc1cc([C@@H]2Oc3cc([C@H]4Oc5cc(O)cc(O)c5C(=O)[C@@H]4O)ccc3O[C@H]2CO)ccc1O", "strain": "IIIB", "cell line": "MT-4", "result": ">110 µM"}
{"compound": "O=c1c2ccccc2sn1/N=C/c1cccc(O)c1", "cell line": "MT-4", "result": ">15 µM"}
{"compound": "C=CCOCn1c(Cc2cccc(F)c2)c(CC)c(=O)[nH]c1=O", "strain": "A17", "cell line": "MT-4", "mutations": "K103N + Y181C", "result": "42 µM"}
{"compound": "C/C=C(\\C)C(=O)OC[C@]1(C)C(=O)CC[C@@]2(C)[C@@H]3CC[C@H]4C[C@@]3(CC[C@@H]21)C[C@@]4(O)CO", "cell line": "MT-4", "result": ">25 µg/mL"}

ECn is the concentration giving n% inhibition of infection, replication or growth. An empty or dashed field is not shown.